Compound potency records, mixed from different reports. Data source: NIAID ChemDB in PubChem.

Shared fields: tests in culture

An empty or dashed field is not shown.

SMILES | setting | cell line | method | tested at | organism | strain | mutations | endpoint | result
Cc1cn([C@H]2C[C@H](N=[N+]=[N-])[C@@H](CO)O2)c(=O)[nH]c1=O | 26 d | CEM | RT activity | 0.2 µM | HIV-1 | LAV-Bru | - | inhibition | 0%
NC(=O)c1c[se]c([C@@H]2O[C@H](CO)[C@@H](O)[C@H]2O)n1 | - | HeLa | cytopathic effect | - | Parainfluenza virus | TYPE 3/C243 | - | EC50 | 1 µg/mL
Cc1cn([C@H]2C[C@H](N=[N+]=[N-])[C@@H](CO)O2)c(=O)[nH]c1=O | - | MT-2 | syncytia | 100 µM | HIV-2 | LAV-2 | - | inhibition | <99%
COC(=O)[C@H]1[C@@H]2C[C@@H](O[C@@H]3O[C@H](C)[C@@H](O)[C@H](N)[C@@H]3O)/C=C/C=C/C=C/C=C/C=C/C=C/C=C/[C@H](C)[C@@H](O)[C@H](C)[C@H](C)OC(=O)C[C@H](O)C[C@H](O)[C@@H](O)CC[C@H](O)C[C@H](O)C[C@](O)(C[C@@H]1O)O2 | - | L929 | plaque count | 50 µg/mL | Vesicular stomatitis virus | - | - | inhibition | 6%
CC1(C)[C@@H](O[C@H]2O[C@H](C(=O)O)[C@@H](O)[C@H](O)[C@H]2O[C@@H]2O[C@H](C(=O)O)[C@@H](O)[C@H](O)[C@H]2O)CC[C@]2(C)[C@H]3C(=O)C=C4[C@@H]5C[C@@](C)(C(=O)O)CC[C@]5(C)CC[C@@]4(C)[C@]3(C)CC[C@@H]12 | - | VERO | virus yield | - | Dengue virus | Type 1 (Hawaii) | - | EC90 | 316 µg/mL
NC(=O)c1ncn([C@@H]2O[C@H](CO)[C@@H](O)[C@H]2O)n1 | - | HEP-2 | plaque count | - | Respiratory syncytial virus | SM61-48 | - | EC50 | 7.67 µM
CC[C@@]1(OC(=O)CN)C(=O)OCc2c1cc1n(c2=O)Cc2cc3cc4c(cc3nc2-1)OCO4 | - | - | - | - | Saccharomyces cerevisiae | Mutant ΔERG6 | - | MIC | 0.19 µg/mL
Nc1ncnc2c1ncn2C[C@@H](CO)OCP(=O)(O)O | - | P3HR-1 | - | 100 µM | Epstein-Barr virus | - | - | inhibition | 11%
C[C@@H](c1nc(-c2ccc(C#N)cc2)cs1)[C@](O)(Cn1cnnc1)c1ccc(F)cc1F | - | - | - | - | Candida albicans | Isogenic isolate 9 (25X) | - | MIC | ≤0.008 µg/mL
C#C[C@]1(CO)O[C@@H](n2cnc3c(N)nc(F)nc32)C[C@@H]1O | - | PBMC | p27 / ELISA | - | SIV | - | - | EC90 | 0.0004 µM
Nc1ccn([C@@H]2C[C@H](CO)[C@@H](O)[C@H]2O)c(=O)n1 | - | BHK-21 | cytopathic effect | - | Vesicular stomatitis virus | - | - | EC50 | 2 µg/mL
Nc1ncnc2c1ncn2CCOCP(=O)(O)O | - | HEL | cytopathic effect | - | Varicella zoster virus | Oka acyclovir-resistant | - | EC50 | 18.7 µM
S=c1nc[nH]c2c1ncn2C1CCCO1 | - | LLC-MK2 | plaque count | 10 µM | Dengue virus | TYPE 2 | - | inhibition | 56%
CC[C@@]1(OC(=O)CN)C(=O)OCc2c1cc1n(c2=O)Cc2cc3ccccc3nc2-1 | - | - | - | - | Saccharomyces cerevisiae | Mutant ΔERG6 | - | MIC | 6.25 µg/mL
CN(C)[C@@H]1C(=O)C(C(N)=O)=C(O)[C@@]2(O)C(=O)C3=C(O)c4c(O)c(NC(=O)CN5CCOCC5)cc(F)c4C[C@H]3C[C@@H]12 | - | - | agar diffusion | - | Pseudomonas aeruginosa | 111-27853 | - | MIC | >32 µg/mL
CC(C)S(=O)(=O)n1c(N)nc2ccc(/C(=N/O)c3ccccc3)cc21 | - | HeLa | plaque count | - | Rhinovirus | Serotype 14 | - | EC50 | 0.03 µg/mL
C#CC[C@@H](C(=O)N[C@H](/C=C/C(=O)OCC)C[C@@H]1CCNC1=O)n1cccc(NC(=O)c2cc(C)on2)c1=O | - | H1-HELA | cytopathic effect / XTT | - | Rhinovirus | Serotype 2 | - | EC50 | 0.013 µM
CN(C)c1ccc(O)c2c1C[C@H]1C[C@H]3[C@H](N(C)C)C(=O)C(C(N)=O)=C(O)[C@@]3(O)C(=O)C1=C2O | - | - | broth dilution | - | Mycobacterium chelonae | - | - | MIC90 | 128 µg/mL
CC(C)(CO)C(=O)SCCOP(=O)(NCc1ccccc1)OC[C@H]1O[C@@H](n2cnc3c(=O)[nH]c(N)nc32)[C@](C)(O)[C@@H]1O | - | Replicon cells | replicon | - | Hepatitis C virus | GT1a | P32L | fold resistance | 0.89
C[C@H]1C[C@@H](n2cnc3c(N)ncnc32)[C@H](O)[C@@H]1O | - | HEL | cytopathic effect | - | Varicella zoster virus | YS | - | EC50 | 12 µg/mL
CN(C)c1cc(NC(=O)CNC(C)(C)C)c(O)c2c1C[C@H]1C[C@H]3[C@H](N(C)C)C(=O)C(C(N)=O)=C(O)[C@@]3(O)C(=O)C1=C2O | - | - | broth dilution | - | Mycobacterium massiliense | X16 | - | MIC | 1 µg/mL
CC[C@@]1(O)C(=O)OCc2c1cc1n(c2=O)Cc2c-1nc1cc3c(cc1c2C)OCO3 | - | - | - | - | Saccharomyces cerevisiae | Mutant ΔERG6 ΔTOP1 | - | MIC | >100 µg/mL
C[C@@H]1CN(c2c(F)c(N)c3c(=O)c(C(=O)O)cn(C4CC4)c3c2F)C[C@H](C)N1 | - | - | - | - | Streptococcus pneumoniae | 1C1 (PARC mutation SER79TYR) | - | MIC | 0.5 µg/mL
CC(C)=CCOc1ccc(C2CC(=O)c3c(O)cc(O)cc3O2)cc1 | - | - | agar diffusion / agar | 100 µg/mL | Candida krusei | - | - | zone | 0 mm
CC[C@@]1(O)C(=O)OCc2c1cc1n(c2=O)Cc2cc3cc(O)ccc3nc2-1 | - | - | - | - | Saccharomyces cerevisiae | Mutant ΔERG6 ΔTOP1 | - | MIC | >100 µg/mL
Nc1ccc(S(=O)(=O)Nc2ncccn2)cc1 | - | - | - | 3 µg/mL | Toxoplasma gondii | - | - | inhibition | 69%
CC(C)CCOc1ccc(C2CC(=O)c3c(O)cc(O)cc3O2)cc1 | - | - | agar diffusion / agar | 100 µg/mL | Candida spp. | Candida inconspicua | - | zone | 0 mm
CC[C@@]1(OC(=O)CN)C(=O)OCc2c1cc1n(c2=O)Cc2c-1nc1cc3c(cc1c2CCl)OCO3 | - | - | - | - | Saccharomyces cerevisiae | JHY6-1C | - | MIC | 3.12 µg/mL
Cc1cn([C@H]2C[C@H](N=[N+]=[N-])[C@@H](COP(=O)(O)OC[C@H]3OC(O)[C@@H](O)[C@@H](O)[C@@H]3O)O2)c(=O)[nH]c1=O | 7 d | PBL | RT activity | 25 µM | HIV-1 | LAV-Bru | - | inhibition | 94%
Nc1ncnc2c1ncn2CCOCP(=O)(O)O | - | P3HR-1 | - | 100 µM | Epstein-Barr virus | - | - | inhibition | 8%
CCCCCCCCCCCCCCCCOP(=O)(OC[C@H]1OC(O)[C@H](O)[C@@H](O)[C@@H]1O)OC[C@H]1O[C@@H](n2cc(C)c(=O)[nH]c2=O)C[C@@H]1N=[N+]=[N-] | 11 d | U-937 | RT activity | 0.2 µM | HIV-1 | LAV-Bru | - | inhibition | 0%
CC[C@@]1(O)C(=O)OCc2c1cc1n(c2=O)Cc2cc3c(CN(C)C)c(O)ccc3nc2-1 | - | - | - | - | Saccharomyces cerevisiae | Mutant ΔERG6 | - | MIC | >1000 µg/mL

Repeating the final 5 entries:

| SMILES | setting | cell line | method | tested at | organism | strain | mutations | endpoint | result |
|---|---|---|---|---|---|---|---|---|---|
| CC[C@@]1(OC(=O)CN)C(=O)OCc2c1cc1n(c2=O)Cc2c-1nc1cc3c(cc1c2CCl)OCO3 | - | - | - | - | Saccharomyces cerevisiae | JHY6-1C | - | MIC | 3.12 µg/mL |
| Cc1cn([C@H]2C[C@H](N=[N+]=[N-])[C@@H](COP(=O)(O)OC[C@H]3OC(O)[C@@H](O)[C@@H](O)[C@@H]3O)O2)c(=O)[nH]c1=O | 7 d | PBL | RT activity | 25 µM | HIV-1 | LAV-Bru | - | inhibition | 94% |
| Nc1ncnc2c1ncn2CCOCP(=O)(O)O | - | P3HR-1 | - | 100 µM | Epstein-Barr virus | - | - | inhibition | 8% |
| CCCCCCCCCCCCCCCCOP(=O)(OC[C@H]1OC(O)[C@H](O)[C@@H](O)[C@@H]1O)OC[C@H]1O[C@@H](n2cc(C)c(=O)[nH]c2=O)C[C@@H]1N=[N+]=[N-] | 11 d | U-937 | RT activity | 0.2 µM | HIV-1 | LAV-Bru | - | inhibition | 0% |
| CC[C@@]1(O)C(=O)OCc2c1cc1n(c2=O)Cc2cc3c(CN(C)C)c(O)ccc3nc2-1 | - | - | - | - | Saccharomyces cerevisiae | Mutant ΔERG6 | - | MIC | >1000 µg/mL |

Zone: diameter of growth inhibition. Inhibition is in % at the dose shown (toxicity tests: loss of growth or viability). Fold resistance has wild type as its base. MIC50, MIC90 and the like: level of inhibition, or share of isolates inhibited. ECn is the concentration giving n% inhibition of infection, replication or growth. Neighbouring rows are from separate reports.